{"source": "PubChem BioAssay AID504761 (Drosophila RNAi Screening Center, 2011)", "aim": "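Fly genes whose silencing reduces dengue virus type 2 infection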 (primary screen)", "cells": "D.Mel-2 cells from Drosophila", "reagent": "long dsRNA against Drosophila genes", "conditions": "infection with dengue virus type 2; dose and infection time not stated", "read-out": "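Cells stained for dengue envelope protein and imaged; percent of infected cells per well on duplicate plates, ranked by infection, with stained nuclei counted for cell number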", "direction": "infection score: higher = more virus-infected cells", "hit rule": "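Low infection ranks in the two replicates (chance level up to 0.065) followed by a retest with a 1.5-fold or larger significant decrease, p below 0.05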", "calls": "active = confirmed: knock-down lowers infection; inactive = not picked or not confirmed", "note": "The screen tested about 22,000 reagents; below is a random part of those with a known target gene and a result. Of all reagents, 116 (0.52%) got an active call. 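Calls depend on retest data that are not deposited; infection was ranked per plate without normalising between plates; the unit of the infection score is not given.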 Unmarked entries are inactive. The numbers tell different reagents against one gene apart. Further read-outs or replicates are left out here. Not stated in the record: the amount of reagent, the time to read-out."}
{"gene": "CG11404 (GeneID 40474)", "dsRNA no.": 1, "infection score, replicate 1": 7.39}
{"gene": "CG11404 (GeneID 40474)", "dsRNA no.": 2, "infection score, replicate 1": 8.42}
{"gene": "ERR (GeneID 38912)", "dsRNA no.": 1, "infection score, replicate 1": 8.26}
{"gene": "CG15044 (GeneID 32834)", "dsRNA no.": 1, "infection score, replicate 1": 32.8}
{"gene": "CG15044 (GeneID 32834)", "dsRNA no.": 2, "infection score, replicate 1": 1.72}
{"gene": "CG15044 (GeneID 32834)", "dsRNA no.": 3, "infection score, replicate 1": 6.27}
{"gene": "CG5953 (GeneID 34985)", "dsRNA no.": 1, "infection score, replicate 1": 1.11}
{"gene": "CG5953 (GeneID 34985)", "dsRNA no.": 2, "infection score, replicate 1": 12.9}
{"gene": "P32 (GeneID 37006)", "dsRNA no.": 1, "infection score, replicate 1": 14.1}
{"gene": "CG4020 (GeneID 31522)", "dsRNA no.": 1, "infection score, replicate 1": 2.01}
{"gene": "Act88F (GeneID 41885)", "dsRNA no.": 1, "infection score, replicate 1": 4.93}
{"gene": "Act88F (GeneID 41885)", "dsRNA no.": 2, "infection score, replicate 1": 2.39}
{"gene": "Arpc3B (GeneID 32696)", "dsRNA no.": 1, "infection score, replicate 1": 14}
{"gene": "Arpc3B (GeneID 32696)", "dsRNA no.": 2, "infection score, replicate 1": 9.45}

Laid out differently: 2 of the entries above
gene,dsRNA no.,"infection score, replicate 1"
CG11404 (GeneID 40474),2,8.42
ERR (GeneID 38912),1,8.26
